A mixed list of measured activities; the numbers were collected in NIAID ChemDB.

Shared fields: growth or infection tests; species: Mycobacterium kansasii

A number after MIC or MFC names an inhibition level or a share of isolates. Conditions beyond the fields shown may differ between rows. An empty or dashed field is not shown.

SMILES,method,conditions,strain,endpoint,result
CC(C)Cc1cnc(C(=O)/C=C/c2ccccc2Br)cn1,absorbance,-,Hauduroy,MIC,100 µg/mL
NNC(=O)c1ccncc1,-,-,104 clinical isolates,MIC90,4 µg/mL
O=C(Nc1ccc(Br)cc1)c1cc(Cl)ccc1OP(=O)(Oc1ccccc1)c1ccccc1,-,7 d,My 6509/96,MIC,8 µM
CCCCc1cnc(C(=O)/C=C/c2ccccc2Br)cn1,absorbance,-,Hauduroy,MIC,25 µg/mL
CC[C@@H](CO)NCCN[C@@H](CC)CO,broth dilution,-,T,MIC,1 µg/mL
CCCCNC(=O)Nc1ccc(S(=O)(=O)Nc2cc(C)on2)cc1,broth dilution / absorbance,14 d,6509/96 clinical isolate,MIC100,500 µM
O=C(/C=C/c1ccccc1F)c1cnccn1,absorbance,-,Hauduroy,MIC,12.5 µg/mL
O=C(N[C@H]([C@H](O)CNCc1cccc(I)c1)C(F)(F)c1ccccc1)OCc1ccccc1,broth dilution,-,T,MIC,128 µg/mL
O=C1c2cc(Br)ccc2OP(=O)(c2ccccc2)N1c1ccc(C(F)(F)F)cc1,-,7 d,My 235/80,MIC,4 µM
CCCCCNC(=O)Nc1ccc(S(=O)(=O)Nc2cc(C)on2)cc1,broth dilution / absorbance,14 d,6509/96 clinical isolate,MIC100,500 µM
CCCc1cnc(C(=O)/C=C/c2ccccc2F)cn1,absorbance,-,Hauduroy,MIC,12.5 µg/mL
O=C1c2cc(Cl)ccc2OP(=O)(c2ccccc2)N1c1ccc(Cl)cc1,-,14 d,My 6509/96,MIC,16 µM
CNC(=O)Nc1ccc(S(=O)(=O)Nc2cc(C)on2)cc1,broth dilution / absorbance,14 d,6509/96 clinical isolate,MIC100,16 µM
CC(C)(C)c1cnc(C(=O)/C=C/c2ccc(Br)cc2)cn1,absorbance,-,Hauduroy,MIC,12.5 µg/mL
O=C(N[C@@H]([C@H](O)CNCc1cccc(I)c1)C(F)(F)c1ccccc1)OCc1ccccc1,broth dilution,-,T,MIC,>256 µg/mL
O=C(/C=C/c1ccc(F)cc1)c1cnccn1,absorbance,-,Hauduroy,MIC,12.5 µg/mL
NNC(=O)c1ccncc1,broth dilution / absorbance,21 d,235/80,MIC100,>250 µM
O=C(Nc1ccc(Cl)cc1)c1cc(Cl)ccc1OP(=O)(c1ccccc1)c1ccccc1,-,21 d,My 235/80,MIC,8 µM
O=C(N/N=C/N1CCN(c2cc3c(cc2F)c(=O)c(C(=O)O)cn3C2CC2)CC1)c1ccc(C(F)(F)F)cc1,-,14 d,6509/96,MIC,1 µM
O=C(N[C@@H]([C@@H](O)CNCc1cccc(I)c1)C(F)(F)c1ccccc1)OCc1ccccc1,broth dilution,-,ATCC 35775,MIC,32 µg/mL
CCCCc1cnc(C(=O)/C=C/c2ccc(Cl)cc2)cn1,absorbance,-,Hauduroy,MIC,12.5 µg/mL

For reference, 3 entries again:

{"SMILES": "O=C(N[C@H]([C@H](O)CNCc1cccc(I)c1)C(F)(F)c1ccccc1)OCc1ccccc1", "method": "broth dilution", "strain": "T", "endpoint": "MIC", "result": "128 µg/mL"}
{"SMILES": "NNC(=O)c1ccncc1", "method": "broth dilution / absorbance", "conditions": "21 d", "strain": "235/80", "endpoint": "MIC100", "result": ">250 µM"}
{"SMILES": "O=C(Nc1ccc(Cl)cc1)c1cc(Cl)ccc1OP(=O)(c1ccccc1)c1ccccc1", "conditions": "21 d", "strain": "My 235/80", "endpoint": "MIC", "result": "8 µM"}